Substitutions are numbered along the chain they refer to. Human monoclonal antibodies against the spike receptor-binding domain (heavy:light variable regions). IC50 against pseudoviruses bearing the spike of naturally observed variants; lower = stronger; >10 µg/ml means not reached at the top dose. No active / inactive call. The stated detection limit is 0.0005 µg/ml; values near or below 0.001 µg/ml lie at the floor of the assay.
B1: XGv-409 (protein)
chain 1: QMQLVQSGPEVKKPGTSVKVSCKASGFTFSDSAIQWVRQARGQRLEWIGWMVVGSGSTNYAQKFQERATMTRDMSTRTAYMELSSLRSEDTAVYYCAAPFCSGGTCSDGFDIWGQGTMVTVSS
chain 2: EIVLTQSPGTLSLSPGERATLSCRASQSISINYFGWYQQRPGQPPRLLIYGASRRATGIPDRFSASGSGTDFALTISRLEPEDFAVYYCQQYGNSPWTFGQGTKVEIK
B2: XGv-418 (protein)
chain 1: EVQLVQSGAEVKKPGESLKISCKGSGYSFGTYWIGWVRQMPGKGLEWMGIIYPGDSDTRYSPSFQGHVTISADKSISTAYLEWSSLKASDSGMYYCASRPPWETYRYWGQGTPVTVSS
chain 2: QSALTQPASVSASPGQSITISCTGTSRDIGSYNLLSWYQQLPGKAPKLIIYEGSKRPSGVSNRFSGSNSGNTASLTISGLQADDEADYYCCSYAGSDTFPGVFGGGTKL
B3: BD57-001 (protein)
chain 1: EVQLVESGGGLVQPGGSLRLSCAASGVTVSSNYMTWVRQAPGKGLEWVSVIYSGGSTFYADSVKGRFTISRDNSKNTLYLQMNSLRAEDTAVYYCARELPHWEGYFDYWGQGTLVTVSS
chain 2: QSVLTQPPSVSGAPGQRVTISCTGSSSTIGAGYDVHWYQQLPETAPKLLIYGNSNRPSGVPDRFSGSKSGTSASLAITGLQAEDEADYYCQSYDSSLSGWVFGGGTKLTVL
B4: BD57-004 (protein)
chain 1: QVQLVQSGGEVKKPGASVKVSCKASGYTFTSYGISWVRQAPGQGLEWMGWISAYNDNTNYEQKFQGRVTMTTDTSTTTAYMELRSLRSDDTAVYYCARYGLYYFDRSGNYDMSPDDSFDIWGQGTMVTVSS
chain 2: B3 chain 2 with T28N, V35I, E43G, W100V
B5: BD57-005 (protein)
chain 1: QVQLVQSGAEVKKPGSSVKVSCKASGGTFSTYAINWVRQAPGQGLEWMGRIISMFDKANYAQNFQGRVTITADKSTTTAYMELNSLRSEDTAVYYCATTKFFYETGVGYYFDYWGQGTLVTVSS
chain 2: EIVLTQSPGTLSLSPGERATLSCRASQNLDSNYLAWYQQKPGQAPRLLIYGASNRATGIPDRFSGSGSGTDFILTISRLEPEDFAVYYCQQYHTSRTFGQGTKVEIK
B6: BD57-013 (protein)
chain 1: EVQLVESGGGLVRPGGSLRLSCAASGIIVSSNYMSWVRQAPGKGLEWVSVIYSGGSTFYADSVKGRFTISRHNSKNTLYLQMNSLRAEDTAVYYCARDLYSSGGTDIWGQGTMVTVSS
chain 2: EIVLTQSPGTLSLSPGERATLSCRASQSVSSSYLAWYQQKPGQAPRLLIYGTSRRATGIADRFSGSGSGADFTLTISRLEPEDFAVYYCQEYGSTTVTFGGGTKVEIK
B7: BD57-014 (protein)
chain 1: EVQLVESGGGLVKPGGSLRLSCAASGFTFSDYTMNWVRQAPGKGLEWVSSISSGSDYIYYADSVKGRFTISRDNAKNSVYMQMNSLRAEDMAVYYCASGGDWFDPWGQGTLVTVSS
chain 2: SYELTQPPSVSVSPGQTASITCSGHKLGDKYASWYQQKPGQSPVLVVYQDSNRPSGIPERFSGSNSGNTATLTISGTQAMDEADYYCQAWDSNTVLFGGGTKLTVL
B8: BD57-016 (protein)
chain 1: QVQLVESGGGLVKPGGSLRLSCAASGFTFGDYNLRWIRQAPGKGLEWVSYISSSGSSIYYADSVKGRFTISRENAKNSLYLQMNSLRAEDTAIYYCARDLWTISSGWFALDGQAFDSWGQGTLVTVSS
chain 2: QSVLTQPPSVSGAPGQRVTISCTGSSSNIGADYDVHWYQQLPGTAPKLLIYTNSNRPSGVPDRFSGSKSGTSASLAITGLQAEDEANYYCQSYDSSLSAPYWVFGGGTKLTVL
B9: BD57-021 (protein)
chain 1: EVQLVESGGGLVQPGGSLRLSCAVSGIIVSRNYMSWVRQAPGKGLEWVSIMYSGGSTFYADSVKGRFTISRDDSKNTLYFQMNSLRDEDTAIYYCARDLLEAGGTDQWGQGTLVTVSS
chain 2: DIVLTQSPGTLSLSPGERATLSCRASQSVSSSSLAWYQQKPGQAPRLLIYGASTRATGIPDRFSGSGSGTDFTLTISRLEPEDFAVYYCQQYGSSPGYTFGQGTKLEIK
B10: BD57-031 (protein)
chain 1: QMQLVQSGPEVKKPGTSVKVSCKASGFTFITSAVQWVRQARGHRLEWIGWIAVGRGNTDYAQRFQERVTITRDVSTTTAYMELSSLRPDDTAVYYCAAPYCSGGTCNDGFDIWGQGTMVTVSS
chain 2: B6 chain 2 with L47V, T52A, A60P, A70T, E91Q, S94T, T95S, T96P, V97W, G101Q
B11: BD57-033 (protein)
chain 1: EVQLVESGGGLVQPGGSLRLSCAASGIIVSSNYMNWVRQAPGKGLEWVSVLYSGGSTFYADSVKGRFIITRDNSKNTLYLQMNSLRVEDMAVYYCARSYGDYYFDYWGQGTLVTVSS
chain 2: EIVLTQSPGTLSLSPGERATLSCRASQSVSSDYLAWYQQKPGQAPRLLIFGASSRATGIPDRFSGSGSGTDFTLTIRRLEPEDFAVYYCQQDGYTFGQGTKLEIK
B12: BD57-035 (protein)
chain 1: QVQLQESGPGLVRPSQTLSLTCSVSGGSISSGSYYWSWIRQPAEKGLEWIGRIYATGNTNYNPSLKSRVTISVDTSKNQFSLRLSYVTAADTAVYYCARERNPTIFGVADDLPGVCWGQGTLVTVSS
chain 2: DIQMTQSPSSLSASVGDRVTITCQASQDIRDFLNWYQQKPGKAPKLLIYDVSNLETGVPSRFSGSGSGTDFTFTISSLQPEDVATYYCQQFDTLITFGGGTKVEI

Tests used:
Experiment in all cases: pseudovirus neutralization IC50; higher = weaker neutralization
[1] = target: SARS-CoV-2 Omicron BA.1 spike pseudovirus
Method: (§1)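 Single-round VSV luciferase pseudovirus mixed with antibody dilutions for 1 h and put on Huh-7 cells for about a day; IC50 from the dose curve.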

[2] = target: SARS-CoV-2 Omicron BA.2 spike pseudovirus
Method: as §1

[3] = target: SARS-CoV-2 Omicron BA.2.75 spike pseudovirus
Method: as §1

[4] = target: SARS-CoV-2 Omicron BA.5 spike pseudovirus
Method: as §1

[5] = target: SARS-CoV-2 Omicron BQ.1.1 spike pseudovirus
Method: as §1

[6] = target: SARS-CoV-2 Omicron XBB spike pseudovirus
Method: as §1

[7] = target: SARS-CoV-2 early D614G spike pseudovirus
Method: as §1

Row | Binder | pseudovirus neutralization IC50 [1] | pseudovirus neutralization IC50 [2] | pseudovirus neutralization IC50 [3] | pseudovirus neutralization IC50 [4] | pseudovirus neutralization IC50 [5] | pseudovirus neutralization IC50 [6] | pseudovirus neutralization IC50 [7]
1 | B1 | 1.5 µg/mL | 1.25 µg/mL | 0.0946 µg/mL | > 10 µg/mL | > 10 µg/mL | > 10 µg/mL | 0.0211 µg/mL
2 | B2 | 2 µg/mL | 0.713 µg/mL | 0.711 µg/mL | 0.651 µg/mL | 1.05 µg/mL | 2.12 µg/mL | 1.13 µg/mL
3 | B3 | 0.403 µg/mL | 0.437 µg/mL | > 10 µg/mL | 0.776 µg/mL | > 10 µg/mL | > 10 µg/mL | 0.0195 µg/mL
4 | B4 | 0.991 µg/mL | > 10 µg/mL | > 10 µg/mL | > 10 µg/mL | > 10 µg/mL | > 10 µg/mL | 0.413 µg/mL
5 | B5 | 0.0345 µg/mL | 0.0335 µg/mL | 0.00485 µg/mL | > 10 µg/mL | > 10 µg/mL | > 10 µg/mL | 0.00652 µg/mL
6 | B6 | 0.0413 µg/mL | 0.0546 µg/mL | 0.0384 µg/mL | 0.0507 µg/mL | 2.63 µg/mL | 3.07 µg/mL | 0.00942 µg/mL
7 | B7 | 0.0413 µg/mL | > 10 µg/mL | > 10 µg/mL | > 10 µg/mL | > 10 µg/mL | > 10 µg/mL | 0.0399 µg/mL
8 | B8 | 0.809 µg/mL | > 10 µg/mL | > 10 µg/mL | > 10 µg/mL | > 10 µg/mL | > 10 µg/mL | 0.104 µg/mL
9 | B9 | 0.0127 µg/mL | 0.0139 µg/mL | 0.0242 µg/mL | 0.0108 µg/mL | 0.191 µg/mL | 0.171 µg/mL | 0.0169 µg/mL
10 | B10 | 0.0593 µg/mL | 0.037 µg/mL | 0.000972 µg/mL | 8.18 µg/mL | > 10 µg/mL | > 10 µg/mL | 0.001 µg/mL
11 | B11 | 0.0121 µg/mL | 0.00899 µg/mL | 0.00819 µg/mL | 0.00771 µg/mL | 0.0161 µg/mL | 0.0152 µg/mL | 0.0236 µg/mL
12 | B12 | 0.0847 µg/mL | 0.0157 µg/mL | 0.0723 µg/mL | 0.263 µg/mL | > 10 µg/mL | > 10 µg/mL | 0.0161 µg/mL

Source: the supplement of paper PMC9931576
